This passage reports MN titer results from patent US20140234336A1.

Assay [1] deals with HA of H5N1 influenza virus A/Vietnam/1203/04 x PR8 (influenza A virus H5N1 A/Vietnam/1203/04 x PR8). In words: cell-based or functional assay.
In assay [2] the target is HA of H7N2 influenza virus A/turkey/Virginia/02 x PR8 (influenza A virus H7N2 A/turkey/Virginia/02 x PR8). Put plainly: cell-based or functional assay.

Regarding CT149 antibody, the MN titer in assay [1] was 2.5 µg/mL; in assay [2], 10 µg/mL.
